Compound potency records, mixed from different reports. Data source: NIAID ChemDB in PubChem.

Common to all: tests in culture; organism: Aspergillus fumigatus; endpoint: zone

Neighbouring rows are from separate reports.

{"structure": "COc1ccc(Cc2ccc(OC)c(-c3nnc4sc(-c5ccc(Cl)cc5)nn34)c2)cc1-c1nnc2sc(-c3ccc(Cl)cc3)nn12", "strain or isolate": "HIC 6094", "dose": "100 µg/disc", "value": "10 mm"}
{"structure": "COc1ccccc1N1CCN(CC(=O)N2c3ccccc3Sc3ccccc32)CC1", "read by": "agar diffusion", "dose": "0.1 µg/mL", "value": "11 mm"}
{"structure": "N#Cc1ccc(Nc2nc(Oc3cccc4cccnc34)nc(N3CCN(c4cccc(Cl)c4)CC3)n2)cc1C(F)(F)F", "strain or isolate": "MTCC 343", "read by": "agar diffusion / agar", "dose": "100 µg/disc", "value": "23 mm"}
{"structure": "Nc1nc(COC(=O)c2ccccc2)cs1", "strain or isolate": "NCIM No. 902", "dose": "25 µg/mL", "value": "<10 mm"}
{"structure": "COc1ccc(CN(CC(O)C[N+](C)(C)C)[C@@H]2[C@@H](O)[C@H](O[C@@H]3O[C@H](COCC(=O)O)[C@@H](O[C@@H]4C[C@H](COCC(=O)O)[C@@H](C)[C@H](O)[C@H]4N(Cc4ccc(OC)c(OC)c4)CC(O)C[N+](C)(C)C)[C@H](O)[C@H]3N(Cc3ccc(OC)c(OC)c3)CC(O)C[N+](C)(C)C)[C@@H](COCC(=O)O)O[C@H]2C)cc1OC", "strain or isolate": "RCMB 02568", "read by": "agar diffusion", "dose": "1 mg/mL", "value": "13.9 mm"}
{"structure": "COc1ccc(NC(=O)c2ccccc2N)cc1", "strain or isolate": "RCMB 02003", "read by": "agar diffusion", "dose": "25 µg/mL", "value": "15.8 mm"}
{"structure": "Cc1nn(-c2ccccc2)c2c1C1(C(=O)N(CCCCCCN3C(=O)C4(SCC(=O)N4c4c(C)n(C)n(-c5ccccc5)c4=O)c4cc(F)ccc43)c3ccccc31)c1c(C)nn(-c3ccccc3)c1O2", "strain or isolate": "MTCC 343", "read by": "agar diffusion", "dose": "100 µg/mL", "value": "14 mm"}
{"structure": "Nc1nc(COC(=O)c2ccco2)cs1", "strain or isolate": "NCIM No. 902", "dose": "25 µg/mL", "value": "<10 mm"}
{"structure": "N#Cc1ccc(Nc2nc(Oc3cccc4cccnc34)nc(N3CCOCC3)n2)cc1C(F)(F)F", "strain or isolate": "MTCC 343", "read by": "agar diffusion / agar", "dose": "100 µg/disc", "value": "20 mm"}
{"structure": "Nc1ccccc1C(=O)Nc1ccc(Cl)cc1", "strain or isolate": "RCMB 02003", "read by": "agar diffusion", "dose": "25 µg/mL", "value": "8.4 mm"}
{"structure": "O=C(CN1CCN(c2ccccc2O)CC1)N1c2ccccc2Sc2ccccc21", "read by": "agar diffusion", "dose": "0.1 µg/mL", "value": "10 mm"}
{"structure": "Cc1[nH]c2ccc(OC(F)(F)F)cc2c1CNC(=O)CCc1cn(C)c2ccc(Cl)cc12", "strain or isolate": "NCIM 902", "dose": "25 µg/mL", "value": "<10 mm"}
{"structure": "CC(=O)c1ccc(-c2nn(-c3ccc(C)cc3)cc2-c2ccc([N+](=O)[O-])cc2)nc1C", "read by": "agar diffusion / agar", "dose": "5 mg/mL", "value": "7 mm"}
{"structure": "COc1ccc(Cc2ccc(OC)c(-c3nnc4sc(-c5cnccn5)nn34)c2)cc1-c1nnc2sc(-c3cnccn3)nn12", "strain or isolate": "HIC 6094", "dose": "100 µg/disc", "value": "22 mm"}
{"structure": "COc1ccc(CN(CC(O)C[N+](C)(C)C)[C@@H]2[C@@H](O)[C@H](O[C@@H]3O[C@H](COCC(=O)O)[C@@H](O[C@@H]4C[C@H](COCC(=O)O)[C@@H](C)[C@H](O)[C@H]4N(Cc4ccc(OC)cc4)CC(O)C[N+](C)(C)C)[C@H](O)[C@H]3N(Cc3ccc(OC)cc3)CC(O)C[N+](C)(C)C)[C@@H](COCC(=O)O)O[C@H]2C)cc1", "strain or isolate": "RCMB 02568", "read by": "agar diffusion", "dose": "1 mg/mL", "value": "14.5 mm"}
{"structure": "Cc1ccc2c(c1)sc1nc(=O)cc(C(=O)NN)n12", "read by": "agar diffusion", "dose": "5000 µg/mL", "value": "18 mm"}
{"structure": "Cc1ccc(-n2cc(-c3ccc([N+](=O)[O-])cc3)c(-c3ccn[nH]3)n2)cc1", "read by": "agar diffusion / agar", "dose": "5 mg/mL", "value": "9 mm"}
{"structure": "COc1ccc(Cc2ccc(OC)c(-c3nnc4sc(Cc5ccc(Cl)cc5)nn34)c2)cc1-c1nnc2sc(Cc3ccc(Cl)cc3)nn12", "strain or isolate": "HIC 6094", "dose": "100 µg/disc", "value": "12 mm"}
{"structure": "COC(=O)N[C@H](C(=O)NN(CC[C@@]1(Cc2ccccc2)C(=O)N(C2c3ccccc3C[C@H]2O)C[C@@H]1O)Cc1ccc(-c2ccncc2)cc1)C(C)(C)C", "strain or isolate": "RCMB 002003", "read by": "agar diffusion / agar", "dose": "10 mg/mL", "value": "18.8 mm"}
{"structure": "N#Cc1ccc(Nc2nc(Oc3cccc4cccnc34)nc(N3CCN(c4ccccn4)CC3)n2)cc1C(F)(F)F", "strain or isolate": "MTCC 343", "read by": "agar diffusion / agar", "dose": "100 µg/disc", "value": "24 mm"}
{"structure": "Nc1ccccc1C(=O)Nc1ccc(F)cc1", "strain or isolate": "RCMB 02003", "read by": "agar diffusion", "dose": "25 µg/mL", "value": "11.9 mm"}
{"structure": "Nc1nc(COC(=O)c2c(F)cccc2Cl)cs1", "strain or isolate": "NCIM No. 902", "dose": "25 µg/mL", "value": "<10 mm"}
{"structure": "COC(=O)c1cc(=O)nc2sc3cc(C)ccc3n12", "read by": "agar diffusion", "dose": "5000 µg/mL", "value": "7 mm"}
{"structure": "N#Cc1ccc(Nc2nc(Oc3cccc4cccnc34)nc(N3CCN(c4cccc(Cl)c4Cl)CC3)n2)cc1C(F)(F)F", "strain or isolate": "MTCC 343", "read by": "agar diffusion / agar", "dose": "100 µg/disc", "value": "25 mm"}
{"structure": "Cc1c(N2C(=O)CSC23C(=O)N(CCCCCCBr)c2ccccc23)c(=O)n(-c2ccccc2)n1C", "strain or isolate": "MTCC 343", "read by": "agar diffusion", "dose": "100 µg/mL", "value": "0 mm"}
{"structure": "CCCCCCCCN(CC(O)C[N+](C)(C)C)[C@@H]1[C@@H](O)[C@H](O[C@@H]2O[C@H](COCC(=O)O)[C@@H](O[C@@H]3C[C@H](COCC(=O)O)[C@@H](C)[C@H](O)[C@H]3N(CCCCCCCC)CC(O)C[N+](C)(C)C)[C@H](O)[C@H]2N(CCCCCCCC)CC(O)C[N+](C)(C)C)[C@@H](COCC(=O)O)O[C@H]1C", "strain or isolate": "RCMB 02568", "read by": "agar diffusion", "dose": "1 mg/mL", "value": "16.7 mm"}
{"structure": "COC(=O)N[C@H](C(=O)NN(CC[C@]1(Cc2ccccc2)C(=O)N(C2c3ccccc3C[C@H]2O)C[C@H]1O)Cc1ccc(Br)cc1)C(C)(C)C", "strain or isolate": "RCMB 002003", "read by": "agar diffusion / agar", "dose": "10 mg/mL", "value": "18.8 mm"}
{"structure": "Cc1ccc(-n2cc(-c3ccc([N+](=O)[O-])cc3)c(C(=O)/C=C/N(C)C)n2)cc1", "read by": "agar diffusion / agar", "dose": "1.25 mg/mL", "value": "0 mm"}
{"structure": "Nc1nc(COC(=O)c2ccccc2[N+](=O)[O-])cs1", "strain or isolate": "NCIM No. 902", "dose": "25 µg/mL", "value": "<10 mm"}
{"structure": "COC(=O)N[C@H](C(=O)NN(CC[C@@]1(Cc2ccccc2)C(=O)N(C2c3ccccc3C[C@H]2O)C[C@H]1O)Cc1ccc(-c2cccnc2)cc1)C(C)(C)C", "strain or isolate": "RCMB 002003", "read by": "agar diffusion / agar", "dose": "10 mg/mL", "value": "18.8 mm"}
{"structure": "O=C(c1cn2cnnc2nn1)c1nn(-c2ccccc2)cc1-c1ccc([N+](=O)[O-])cc1", "read by": "agar diffusion / agar", "dose": "1.25 mg/mL", "value": "2 mm"}
{"structure": "C[C@H]1[C@H](O)[C@@H](C)/C=C/C=C/C=C/C=C/C=C/C=C/C=C/[C@H](O[C@@H]2O[C@H](C)[C@@H](O)[C@H](N)[C@@H]2O)C[C@@H]2O[C@](O)(C[C@@H](O)C[C@@H](O)CC[C@H](O)[C@@H](O)C[C@@H](O)CC(=O)O[C@H]1C)C[C@H](O)[C@H]2C(=O)O", "read by": "agar diffusion", "dose": "0.5 mg/disc", "value": "0 mm"}
{"structure": "Cc1ccc2c(c1)C1(C(=O)N2CCCCCCN2C(=O)C3(SCC(=O)N3c3c(C)n(C)n(-c4ccccc4)c3=O)c3cc(F)ccc32)c2c(C)nn(-c3ccccc3)c2Oc2c1c(C)nn2-c1ccccc1", "strain or isolate": "MTCC 343", "read by": "agar diffusion", "dose": "100 µg/mL", "value": "12 mm"}
{"structure": "Cc1c(CCCNC(=O)CCc2c[nH]c3ccc(Cl)cc23)c2cc(OC(F)(F)F)ccc2n1C", "strain or isolate": "NCIM 902", "dose": "25 µg/mL", "value": "<10 mm"}
{"structure": "C[C@@H]1[C@@H](COCC(=O)O)C[C@@H](O[C@H]2[C@H](O)[C@@H](N(Cc3cccc(Br)c3)CC(O)C[N+](C)(C)C)[C@H](O[C@H]3[C@H](O)[C@@H](N(Cc4cccc(Br)c4)CC(O)C[N+](C)(C)C)[C@H](C)O[C@@H]3COCC(=O)O)O[C@@H]2COCC(=O)O)[C@H](N(Cc2cccc(Br)c2)CC(O)C[N+](C)(C)C)[C@H]1O", "strain or isolate": "RCMB 02568", "read by": "agar diffusion", "dose": "1 mg/mL", "value": "22.7 mm"}
{"structure": "CCOC(=O)c1ccc(-c2nn(-c3ccccc3)cc2-c2ccc([N+](=O)[O-])cc2)nc1C", "read by": "agar diffusion / agar", "dose": "1.25 mg/mL", "value": "5 mm"}
{"structure": "COc1ccc(Cc2ccc(OC)c(-c3nnc4sc(-c5cccnc5)nn34)c2)cc1-c1nnc2sc(-c3cccnc3)nn12", "strain or isolate": "HIC 6094", "dose": "100 µg/disc", "value": "20 mm"}
{"structure": "Cn1cc(CCC(=O)NCc2cn(C)c3ccc(Cl)cc23)c2cc(Cl)ccc21", "strain or isolate": "NCIM 902", "dose": "25 µg/mL", "value": "<10 mm"}
{"structure": "Cc1nn(-c2ccccc2)c2c1C1(C(=O)N(CCCCCCN3C(=O)C4(SCC(=O)N4c4c(C)n(C)n(-c5ccccc5)c4=O)c4cc(F)ccc43)c3ccc(F)cc31)c1c(C)nn(-c3ccccc3)c1O2", "strain or isolate": "MTCC 343", "read by": "agar diffusion", "dose": "100 µg/mL", "value": "15 mm"}

Zones are inhibition diameters on agar.